This note sets out measurements from PMC10296771, “Glycosylation of H4 influenza strains with pandemic potential and susceptibilities to lung surfactant SP-D” (2023).

The target of this experiment is Dodecameric human SP-D neck and carbohydrate domains with [change] and [change] mutations, biotinylated (human). The experiment can be described thus: SPR.

The substance “Hemagglutinin (H3) of A/NY/470/2004 (H3N2), on whole virus (natural protein)” returned a dissociation constant Kd of 121 nM.

As a reminder, the Kd is the constant that tells how readily two partners part at equilibrium. A higher Kd goes with a looser complex.
